Pooled drug test results. Numbers come from NIAID ChemDB, via PubChem.

Shared fields: growth or infection tests; organism: HIV-1; read by: virus yield; endpoint: EC50

An empty or dashed field is not shown.

SMILES	setting	strain or isolate	cell line	value
CC1(C)[C@@H](O[C@H]2O[C@H](C(=O)O)[C@@H](O)[C@H](O)[C@H]2O[C@@H]2O[C@H](C(=O)O)[C@@H](O)[C@H](O)[C@H]2O)CC[C@]2(C)[C@H]3C(=O)C=C4[C@@H]5C[C@@](C)(C(=O)O)CC[C@]5(C)CC[C@@]4(C)[C@]3(C)CC[C@@H]12	6 d	IIIB	MOLT-4	<1200 µM
Cc1cc2oc(=O)c(C(=O)/C=C/c3ccccc3[N+](=O)[O-])c(O)c2cc1Cl		IIIB	MT-4	>6.94 µg/mL
COC(=O)[C@@H](NC(=O)[C@@H](NC(=O)[C@@H](C)NC[C@H](O)[C@H](Cc1ccccc1)NC(=O)[C@H](C)NC(=O)[C@H](C)NC(=O)OCc1ccccc1)C(C)C)C(C)C		IIIB	MOLT-4	0.87 µM
CCCCCCCCCCCCCC[C@@]1(O)C[N+](C)(C)C[C@@H](CC(=O)[O-])O1		RF		~32 µg/mL
Cc1cc2oc(=O)c(C(=O)/C=C/c3ccc(N(C)C)cc3)c(O)c2cc1Cl		IIIB	MT-4	>35.23 µg/mL
CCOP(=O)(CC)Cc1cccc(Nc2cc(-c3ccccc3OCc3ccccc3)ncn2)c1			MT-4	0.212 µM
Cc1ccc(C(C)C)c2oc(=O)c(C(=O)/C=C/c3ccccc3[N+](=O)[O-])c(O)c12		IIIB	MT-4	>3.06 µg/mL
CCCP(=O)(Cc1cccc(Nc2cc(-c3ccccc3OCc3ccccc3)ncn2)c1)OCC			MT-4	0.143 µM
Cc1ccc(C(C)C)c2oc(=O)c(C(=O)/C=C/c3cccc([N+](=O)[O-])c3)c(O)c12		IIIB	MT-4	>10.9 µg/mL
CCP(=O)(O)Cc1cccc(Nc2cc(-c3ccccc3OCc3ccccc3)ncn2)c1			MT-4	0.163 µM
COC(=O)[C@@H](NC(=O)[C@@H](NC(=O)[C@@H](C)NC[C@H](O)[C@H](Cc1ccccc1)NC(=O)[C@H](C)NC(=O)OCc1ccccc1)C(C)C)C(C)C		IIIB	MOLT-4	0.1 µM
Cc1ccc(C(C)C)c2oc(=O)c(C(=O)/C=C/c3ccccc3)c(O)c12		IIIB	MT-4	>12.75 µg/mL
CCCCCCCCCCCC[C@@]1(O)C[N+](C)(C)C[C@@H](CC(=O)[O-])O1		RF		~100 µg/mL
COc1cccc2[nH]cc(C(=O)C(=O)N3CCN(C(=O)c4ccccc4)C[C@H]3C)c12		BRU	MT-2/CXCR4	0.00326 µM
CCOP(=O)(Cc1cccc(Nc2cc(-c3cccc(N)c3)ncn2)c1)OCC			MT-4	0.332 µM

2 of the rows above, restated:

CC1(C)[C@@H](O[C@H]2O[C@H](C(=O)O)[C@@H](O)[C@H](O)[C@H]2O[C@@H]2O[C@H](C(=O)O)[C@@H](O)[C@H](O)[C@H]2O)CC[C@]2(C)[C@H]3C(=O)C=C4[C@@H]5C[C@@](C)(C(=O)O)CC[C@]5(C)CC[C@@]4(C)[C@]3(C)CC[C@@H]12 ; setting: 6 d ; strain or isolate: IIIB ; cell line: MOLT-4 ; value: <1200 µM
CCP(=O)(O)Cc1cccc(Nc2cc(-c3ccccc3OCc3ccccc3)ncn2)c1 ; cell line: MT-4 ; value: 0.163 µM

Neighbouring rows are from separate reports. ECn: concentration that inhibits the pathogen or its effect by n%.